Tested on: PBMC (CD8+ T cells) of HIV-1 infected individuals
Test: IFN-γ Elispot assay with PBMC and synthetic HIV-1 peptides
Type: cell-based, human
Settings: AL9: HLA-A2; FL9: HLA-B7
Method: PBMC were plated on 96-well polyvinylidene difluoride-backed plates (MAIP S45, Millipore, Bedford, Mass.) that had been previously coated with 100 μl of an anti-IFN-γ mAB 1-D1k (0.5 μg/ml, Mabtech, Stockholm, Sweden) overnight at 4° C. Peptides were added directly to the wells at a final concentration of 1×10^−5 molar. Cells were added to the wells at 50,000 to 100,000 cells per well. The plates were incubated at 37° C., 5% CO2 overnight (14-16 h) and then processed as described. IFN-γ producing cells were counted by direct visualization and are expressed as spot forming cells (SFC) per 10^6 cells. The number of specific IFN-γ secreting T-cells was calculated by subtracting the negative control value from the established SFC count. The negative controls were always <20 SFC per 10^6 input cells. Responses ≧40 SFC per 10^6 input cells above background were considered positive. The positive control consisted of incubation of 100,000 PBMC with phytohaemagglutinin (PHA). CD8+ T cell dependence of all responses to synthetic peptides was confirmed by loss of IFN-γ production after CD8+ T cell depletion using magnetic beads (MACS, Miltenyi Biotech, Germany), according to the manufacturer's protocol. Fine mapping of epitopes by Elispot assay was performed, using peptide truncations (e.g., as described in Altfield et al., 2000, J. Virol. 74:8541). […]

Sequence: AIIRILQQL (Human immunodeficiency virus type 1) [AL9]
- individuals expressing the HLA allele that targeted the epitope: 6/18
